Anti-infective test results gathered from many reports (values: NIAID ChemDB through PubChem).

ICn is the concentration giving n% inhibition. Inhibition is in % at the dose shown (toxicity tests: loss of growth or viability). MIC bound comes from a single tested concentration. Conditions beyond the fields shown may differ between rows. Blank or dashed fields: not listed here. MIC50, MIC90 and the like: level of inhibition, or share of isolates inhibited.

SMILES,kind,species,strain,target,method,measure,tested at,result
Fc1ccc(N2CCN(c3cncc(-c4ccc5ccccc5c4)n3)CC2)c(F)c1,target,Cytomegalovirus,-,UL97 kinase,-,inhibition,1 µM,<50%
Fc1ccc(N2CCCCC2)c(NC(=S)c2ccncc2)c1,host protein,-,-,BRAF,kinase activity,inhibition,10 µM,6.5%
CCCCCCCCCCCCCCCCNC(N)=O,culture,Mycobacterium tuberculosis,H37Rv,-,-,MIC,-,100 µg/mL
C=CCc1ccc(OC)c(OC)c1,culture,Candida albicans,3143,-,turbidity,MIC90,-,340 µg/mL
c1ccc(Oc2ccc(-c3cncc(N4CCN(c5ccccc5)CC4)n3)cc2)cc1,target,Cytomegalovirus,-,UL97 kinase,-,inhibition,10 µM,>15%
COc1ccc(/C=C2\N=C(c3ccccc3)OC2=O)c(Cl)c1OC,culture,Mycobacterium tuberculosis,H37Rv,-,BACTEC,MIC bound,-,>12.5 µg/mL
Cc1ccc(-c2ccccc2)n1-c1ccc(Br)cc1,culture,Mycobacterium tuberculosis,H37Rv,-,-,MIC,-,100 µg/mL
NNC(=O)CNC(c1ccccc1)(c1ccccc1)c1ccccc1,culture,Mycobacterium tuberculosis,H37Rv,-,BACTEC,MIC bound,-,>12.5 µg/mL
Cl.N=C(N)c1ccc([N+](=O)[O-])cc1,culture,Mycobacterium tuberculosis,H37Rv,-,-,MIC,-,>100 µg/mL
Cc1csc2nc(-c3ccccc3)c(/C=N/NC(=O)CN(C)C)n12,culture,Mycobacterium tuberculosis,H37Rv,-,BACTEC,inhibition,12.5 µg/mL,3%
CC(=O)c1ccc(N2CCN(c3cncc(-c4ccoc4)n3)CC2)cc1,target,Cytomegalovirus,-,UL97 kinase,-,IC50,-,<10 µM
CC1SC(=S)NC1=O,culture,Mycobacterium tuberculosis,H37Rv,-,-,MIC,-,>100 µg/mL
Cc1c2ccncc2cc2c1sc1ccncc12,culture,Mycobacterium tuberculosis,H37Rv,-,resazurin,MIC bound,-,<6.25 µg/mL
Cc1ccc(S(=O)(=O)Nc2cc(S(=O)(=O)O)cc3cc(S(=O)(=O)[O-])cc(O)c23)cc1.[Na+],culture,Mycobacterium tuberculosis,H37Rv,-,-,MIC,-,>100 µg/mL
C/C(=N\Nc1cc(C)c2cccc(C)c2n1)c1ccccn1,culture,Mycobacterium tuberculosis,H37Rv,-,BACTEC,MIC bound,-,>12.5 µg/mL
CN(C)c1ccc(-c2cncc(N3CCN(c4ccccc4F)CC3)n2)cc1,target,Cytomegalovirus,-,UL97 kinase,-,IC50,-,<10 µM
CC(C)(O)C#CC(C)(C)O,culture,Mycobacterium tuberculosis,H37Rv,-,-,MIC,-,100 µg/mL
COc1cccc(N2CCN(c3cncc(-c4ccc5ccccc5c4)n3)CC2)c1,target,Cytomegalovirus,-,UL97 kinase,-,inhibition,1 µM,<50%
CCCC[N+](CCCC)=c1ccc2nc3c(C)cc(N(CC)CC)cc3sc-2c1,culture,Mycobacterium tuberculosis,H37Rv,-,-,MIC,-,0.4 µg/mL
Oc1cccc(NC(=S)Nc2cccc(O)c2)c1,culture,Mycobacterium tuberculosis,H37Rv,-,-,MIC,-,>100 µg/mL
Cc1ccc(NC2=NCCS2)cc1Cl,culture,Mycobacterium tuberculosis,H37Rv,-,BACTEC,inhibition,12.5 µg/mL,-15%
CN(CC(OC(=O)c1ccccc1)c1ccccc1)c1ccccc1.Cl,culture,Mycobacterium tuberculosis,H37Rv,-,-,MIC,-,>100 µg/mL
Fc1ccc(N2CCN(c3cncc(-c4cc5ccccc5s4)n3)CC2)c(F)c1,target,Cytomegalovirus,-,UL97 kinase,-,IC50,-,<10 µM
C.COc1ccc([C@H]2OC(=O)C3C2C(=O)O[C@@H]3c2ccc(OC)c(OC)c2)cc1OC,culture,Mycobacterium tuberculosis,H37Rv,-,BACTEC,inhibition,12.5 µg/mL,0%
COc1cccc(C(=O)O)c1O,culture,Mycobacterium tuberculosis,H37Rv,-,-,MIC,-,>100 µg/mL
Cc1cc(C)cc(-c2cncc(N3CCN(c4cccc(C)c4)C(C)C3)n2)c1,target,Cytomegalovirus,-,UL97 kinase,-,IC50,-,<100 µM
NC(=S)N/N=C/C1CNCCN1,culture,Mycobacterium tuberculosis,H37Rv,-,BACTEC,inhibition,12.5 µg/mL,65%
COC(=O)c1cccc(OC)c1-c1c(OC)cccc1C(=O)OC,culture,Mycobacterium tuberculosis,H37Rv,-,-,MIC,-,100 µg/mL
CCN(CC)C(=S)Sc1nc2ccccc2s1,culture,Mycobacterium tuberculosis,H37Rv,-,BACTEC,MIC,-,32 µg/mL
FC(F)(F)c1cccc(-c2cncc(N3CCN(c4ccncc4)CC3)n2)c1,target,Cytomegalovirus,-,UL97 kinase,-,IC50,-,<1 µM
CC(=O)SCC(=O)Nc1ccc(CC(=O)Nc2cc(Cl)c(C)c(Cl)c2O)cc1,culture,Mycobacterium tuberculosis,H37Rv,-,-,MIC,-,>100 µg/mL
Cc1cc(=O)c2c([nH]1)c1c(c3[nH]c(C)cc(=O)c32)Oc2ccccc2O1,culture,Mycobacterium tuberculosis,PAS-R,-,-,MIC,-,0.8 µg/mL
Fc1ccc(-c2cncc(N3CCN(c4cccc(Cl)c4)CC3)n2)cc1,target,Cytomegalovirus,-,UL97 kinase,-,IC50,-,<10 µM